Laboratory results from article PMC12678819, “Targeting bacterial kinases as a strategy to counteract antibiotic resistance” (2025).

Amino acid sequences for entries named in this document (tags omitted). Residues count along the entry.
UniProt O68183, 1-301: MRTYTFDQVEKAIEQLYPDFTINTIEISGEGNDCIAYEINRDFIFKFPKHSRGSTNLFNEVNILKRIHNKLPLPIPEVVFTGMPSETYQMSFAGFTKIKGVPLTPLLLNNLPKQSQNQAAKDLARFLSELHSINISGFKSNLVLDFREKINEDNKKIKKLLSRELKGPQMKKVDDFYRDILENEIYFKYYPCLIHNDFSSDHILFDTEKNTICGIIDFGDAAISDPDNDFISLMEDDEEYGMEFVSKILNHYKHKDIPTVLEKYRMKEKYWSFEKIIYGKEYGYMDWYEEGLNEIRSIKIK

Assays:
APH(2”)-IVa [1] = biological target: T1, APH(2”)-IVa (Enterococcus casseliflavus, UniProt O68183); assay: Pyruvate Kinase-Lactate Dehydrogenase-coupled enzyme assay; settings: for Inhibition (%) at 10 µM: 10 µM compound; for Ki: 25°C, competitive vs MgATP, 100 µM kanamycin A
APH(2”)-IVa [2] = biological target: T1, APH(2”)-IVa; assay: Thermal shift assay; settings: 500 µM compound
[3] = system: S. aureus ATCC 33591 (MRSA); assay: Cellular uptake assay; settings: single replicate
E. faecalis ATCC 29212 = assay: Cellular uptake assay; settings: single replicate

SMILES | Inhibition (%) at 10 µM (APH(2”)-IVa [1]) [%] | Ki (APH(2”)-IVa [1]) [nM] | ΔTm (°C) at 500 µM (APH(2”)-IVa [2]) [°C] | other results
N#Cc1ccc(Cn2cc(-c3c(Cl)cnc4[nH]ccc34)nn2)cc1 | 44 | 16200 | 0.26 | –
Nc1cc(-c2ccn[nH]2)c(Cl)cn1 | – | 20000 | 0.39 | –
C[C@H](CO)n1cc(-c2c(Cl)cnc3[nH]ccc23)nn1 | 74 | 1000 | 1.09 | –
C[C@@H](O)Cn1cc(-c2c(Cl)cnc3[nH]ccc23)nn1 | 87 | 443 | 1.27 | –
Clc1cnc2[nH]ccc2c1-c1cn(-c2ccccc2)nn1 | 87 | 916 | 0.49 | –
Fc1cccc(-n2cc(-c3c(Cl)cnc4[nH]ccc34)nn2)c1 | 72 | 2700 | 0.16 | –
Cc1cc(-c2cc(N)ncc2Cl)[nH]n1 | 40 | 9950 | 0.51 | –
OC[C@H](O)Cn1cc(-c2c(Cl)cnc3[nH]ccc23)nn1 | 85 | 479 | 1.56 | –
C[C@@H](O)CCn1cc(-c2c(Cl)cnc3[nH]ccc23)nn1 | 91 | 444 | 1.33 | concentration in cell lysate [3]: 1.65 ng/mL and 0.952 ng/mL and 1.49 ng/mL; concentration in cytoplasm [3]: 0.3 ng/mL and 0.321 ng/mL and 0.297 ng/mL; concentration in membrane [3]: 0.199 ng/mL and 0.107 ng/mL and 0.0887 ng/mL; concentration in cell lysate (E. faecalis ATCC 29212): 1.06 ng/mL and 1.12 ng/mL; concentration in cytoplasm (E. faecalis ATCC 29212): 1.24 ng/mL and 1.16 ng/mL; concentration in membrane (E. faecalis ATCC 29212): 1.12 ng/mL; concentration in periplasm (E. faecalis ATCC 29212): 1.47 ng/mL
Cc1ccc(-n2cc(-c3c(Cl)cnc4[nH]ccc34)nn2)cc1 | 40 | > 10000 | -0.20 | –
C[C@H](O)CCn1cc(-c2c(Cl)cnc3[nH]ccc23)nn1 | 90 | 325 | 1.31 | –
CC(C)(C)C(=O)OCn1cc(-c2c(Cl)cnc3[nH]ccc23)nn1 | 82 | 2400 | 2.04 | –
Fc1ccc(-n2cc(-c3c(Cl)cnc4[nH]ccc34)nn2)cc1 | 73 | 6300 | 0.23 | –
OCCn1cc(-c2c(Cl)cnc3[nH]ccc23)nn1 | 77 | 2400 | 1.12 | –
Nc1ccc(Cl)cn1 | 0.5 | 500000 | 1.25 | –

Where “and” joins values, the source holds several entries; their conditions need not be identical. Equal entries are not always repeated.
